Pooled drug test results. Numbers come from NIAID ChemDB, via PubChem.

Shared fields: tests in culture; organism: HIV-1; cell line: PBMC; endpoint: EC50

An empty or dashed field is not shown. Rows are shuffled and stem from different studies. ECn: concentration that inhibits the pathogen or its effect by n%.

smiles	strain	mutations	method	setting	result
COC(=O)[C@H](Cc1c[nH]c2ccccc12)NP(=O)(OC[C@H]1O[C@@H](N2C(=O)NC(=O)C(C)(Br)C2OC)C[C@@H]1N=[N+]=[N-])Oc1ccc(Br)cc1	IIIB		p24 / ELISA		0.34 µM
Cc1cn([C@H]2C[C@H](N=[N+]=[N-])[C@@H](CO)O2)c(=O)[nH]c1=O	xxBRU				<0.01 µM
Cc1cn([C@H]2C[C@H](N=[N+]=[N-])[C@@H](CO)O2)c(=O)[nH]c1=O	CLADE A		RT activity		0.008 µM
Cc1csc(NC(=S)N[C@H](C)c2ccccc2)n1	IIIB		p24		<0.001 µM
Cc1ccc(-c2ccc3c(c2)C=C(C(=O)Nc2ccc(C[N+](C)(C)C4CCOCC4)cc2)CCC3)cc1	NL4-3 X4		p24		>1 µM
COC(=O)[C@H](Cc1ccccc1)NP(=O)(OC[C@H]1O[C@@H](N2C(=O)NC(=O)C(C)(Br)C2OC)C[C@@H]1N=[N+]=[N-])Oc1ccc(Br)cc1	IIIB		p24 / ELISA		0.035 µM
Nc1ccn([C@@H]2O[C@H](CO)C=C2F)c(=O)n1	3TC-resistant (RT M184V)	RT-M184V			<1.8 µM
O=Nc1c(-c2c(O)[nH]c3ccccc23)[nH]c2ccccc12	GP120-R305K P308H SCH-1 resistant		p24		<1 µM
Nc1ccn([C@@H]2C[C@@H](F)[C@H](CO)O2)c(=O)n1	LAI		RT activity		82 µM
Cc1cccc(NC(=S)N[C@H](C)c2ccccc2)n1	IIIB		p24		0.025 µM
Nc1nc(=O)n([C@@H]2C[Se][C@H](CO)O2)cc1F	LAV		trypan blue		0.07 µM
CCC(NC(=S)Nc1ccc(C)cn1)c1ccccc1	IIIB		p24		0.005 µM
Cc1cn([C@H]2C[C@H](N=[N+]=[N-])[C@@H](CO)O2)c(=O)[nH]c1=O	IIIB		p24 / ELISA		0.005 µM
O=C1c2ccccc2C2(c3ccccc3)SCCN12	D79		p24 / ELISA		0.058 µM
Cc1ccnc2c1NC(=O)c1cccnc1N2C1CC1	CLADE F		RT activity		0.2 µM
O=S(=O)(O)c1ccc(-c2c3nc(c(-c4ccc(S(=O)(=O)O)cc4)c4ccc([n-]4)c(-c4ccncc4)c4ccc([n-]4)c(-c4ccc(S(=O)(=O)O)cc4)c4nc2C=C4)C=C3)cc1.[Na+]	LAV		RT activity		<1 µM
Nc1nc(NC2CC2)c2ncn([C@H]3C=C[C@@H](CO)O3)c2n1	LAI		cytopathic effect / MTT		1.1 µM
CCCc1cc(=O)oc2c3c(c4c(c12)OC(C)(C)C=C4)O[C@H](C)[C@@H](C)[C@@H]3O	SLKA(SI)		RT activity		0.3 µM
C[C@@H](NC(=S)Nc1nc2ccccc2s1)c1cccc2ccccc12	IIIB		p24		0.205 µM
CCCCCCCCCCCCCC(=O)O[C@H]1CCC(NC(=O)[C@H](OC)[C@H](O)[C@@H](O)[C@H](O)/C=C/C(C)C)C(=O)NC1	NL4-3		p24 / ELISA		0.032 µM
C[C@H](CNC(=S)Nc1ccc(Cl)cn1)c1ccccc1	IIIB		p24		0.038 µM
Cc1cn([C@H]2C[C@H](N=[N+]=[N-])[C@@H](CO)O2)c(=O)[nH]c1=O	D79		p24 / ELISA		0.022 µM
Nc1nc(Cl)nc2c1ncn2[C@@H]1C[C@@H](O)[C@H](CO)O1	LAI		RT activity		>10 µM
COC[C@@H](c1ccc(C(F)(F)F)cc1)N1CCN(C2(C)CCN(C(=O)c3c(C)ncnc3C)CC2)C[C@@H]1C	M-tropic		p24		0.0075 µM
O=c1[nH]c(=O)n([C@H]2C=C[C@@H](CO)O2)cc1F	LAI		RT activity		7.9 µM
CC[n+]1ccc(C2=C3C=CC(=N3)C(c3cc[n+](CC)cc3)=C3C=CC(=C(c4cc[n+](CC)cc4)C4=NC(=C(c5cc[n+](CC)cc5)C5=CC=C2[NH2+]5)C=C4)[NH2+]3)cc1.[Cl-]	LAV		RT activity		2 µM
CC(C)(C)NC(=O)[C@@H]1C[C@@H]2CCCC[C@@H]2CN1C[C@@H](O)[C@H](Cc1ccccc1)NC(=O)[C@H](CC(N)=O)NC(=O)c1ccc2ccccc2n1	BR59 (PR L10I K20R M36I/V P63L/S L90M)	PR-L10I K20R M36I/V P63L/S L90M	p24		0.005 µM
Cc1cn([C@H]2C[C@H](N=[N+]=[N-])[C@@H](CO)O2)c(=O)[nH]c1=O	IIIB		p24		0.0083 µM
CCCCCCCCC#Cc1cn(COCCO)c(=O)[nH]c1=O	LAI		RT activity		23.7 µM
Cc1c(O)cccc1C(=O)N[C@@H](CSc1ccccc1)[C@H](O)CN1C[C@H]2CCCC[C@H]2C[C@H]1C(=O)NC(C)(C)C	NL4-3 X4		p24		0.02 µM
CCCc1cc(=O)oc2c3c(c4c(c12)OC(C)(C)C=C4)O[C@@H](C)[C@H](C)[C@@H]3O	TEKI(SI)		RT activity		0.2 µM
CCCCN1C(=O)C(CC2CCCCC2)NC(=O)C12CCN(Cc1ccc3c(c1)OCCO3)CC2	NL4-3 X4		p24		>1 µM
C[C@@H](NC(=S)Nc1ccc(Cl)cn1)c1cccc2ccccc12	IIIB		p24		0.001 µM
O=c1[nH]cnc2c1ncn2[C@H]1CC[C@@H](CO)O1	8680 CLADE D CLADE D		p24		5.38 µM
Cc1cn([C@H]2C[C@H](N=[N+]=[N-])[C@@H](CO)O2)c(=O)[nH]c1=O		RT-T215Y K219Q	p24		0.017 µM
Cc1cn([C@H]2C[C@H](N=[N+]=[N-])[C@@H](CO)O2)c(=O)[nH]c1=O	IIIB		p24		0.0099 µM
C[C@@H](NC(=S)Nc1ccc(Cl)cn1)c1cccc2ccccc12	RT multidrug-resistant (L74V V106A T215Y)	RT-L74V V106A T215Y	p24		0.001 µM
C[C@H](CNC(=S)Nc1ccc(Br)cn1)c1ccccc1	NNRTI-resistant (RT Y181C K103N) A17V	RT-Y181C K103N	p24		1.23 µM
CCCCCc1ccc(-c2cc3cn(CC=C(CO)CO)c(=O)nc3o2)cc1	LAI		RT activity		4.9 µM
CC(C)(C)NC(=O)[C@@H]1C[C@@H]2CCCC[C@@H]2CN1C[C@@H](O)[C@H](Cc1ccccc1)NC(=O)[C@H](CC(N)=O)NC(=O)c1ccc2ccccc2n1	BAL R5		p24		0.011 µM
Cc1ccnc2c1NC(=O)c1cccnc1N2C1CC1	RT multidrug-resistant (L74V V106A T215Y)	RT-L74V V106A T215Y	p24		0.155 µM
COC(=O)[C@H](Cc1ccccc1)NP(=O)(OC[C@H]1O[C@@H](N2C(=O)NC(=O)C(C)(Br)C2OC)C[C@@H]1N=[N+]=[N-])Oc1ccccc1	IIIB		p24 / ELISA		0.15 µM
CSc1c(C)c(SC)n2ccncc12	IIIB		MTT		18 µM
COC(=O)[C@H](CC(C)C)NP(=O)(OC[C@H]1O[C@@H](N2C(=O)NC(=O)C(C)(Br)C2OC)C[C@@H]1N=[N+]=[N-])Oc1ccc(Br)cc1	IIIB		p24 / ELISA		0.026 µM
Cc1nnc(C(C)C)n1C1C[C@H]2CC[C@@H](C1)N2CC[C@H](NC(=O)C1CCC(F)(F)CC1)c1ccccc1	CC1/85 maraviroc-resistant isolate		p24 / ELISA		>20 µM
CC1=C(CCC(=O)O)c2cc3nc(cc4[nH]c(cc5[nH]c(cc1n2)c(C)c5C(C)O)c(C)c4C(C)O)C(C)=C3CCC(=O)O	LAV		RT activity		1.94 µM
COC(=O)[C@H](C)NP(=O)(OC[C@H]1O[C@@H](N2C(=O)NC(=O)C(C)(Br)C2OC)C[C@@H]1N=[N+]=[N-])Oc1ccccc1	IIIB		p24 / ELISA		0.035 µM
NC(=O)c1cc2c(-c3ccc4c(c3)CCO4)cncc2s1	92TH014		p24 / ELISA		0.0196 µM
CCCCCc1cc2cn(COCCO)c(=O)nc2o1	LAI		RT activity		2.7 µM
CCC[C@@]1(CCc2ccccc2)CC(O)=C([C@H](CC)c2cccc(NS(=O)(=O)c3ccc(C(F)(F)F)cn3)c2)C(=O)O1	6 clinical isolates AZT-resistant		p24		<0.04 µM
O=c1[nH]cnc2c1ncn2[C@H]1CC[C@@H](CO)O1		RT-T215Y K219Q	p24		1.1 µM
C[C@H](Cn1cnc2c(N)ncnc21)OCP(=O)(O)O	IIIB		XTT / p24	7 d	0.18 µM
Cc1cn([C@@H]2C[C@@H](N=[N+]=[N-])[C@H](CO)O2)c(=O)[nH]c1=O	LAI		RT activity		>100 µM
Cc1csc(NC(=S)N[C@H](C)c2cccc3ccccc23)n1	A17V(RT-K103N Y181C)	RT-K103N Y181C	p24		0.114 µM
CCCCCCCCc1cc2cn(CC=C(CO)CO)c(=O)nc2o1	LAI		RT activity		25.1 µM
S=C(NCc1ccco1)Nc1nccs1	IIIB		p24		<0.001 µM
CCOC(=O)Cc1csc(NC(=S)NC(CC)c2ccccc2)n1	IIIB		p24		0.05 µM
CC(C)(C)NC(=O)[C@@H]1C[C@@H]2CCCC[C@@H]2CN1C[C@@H](O)[C@H](Cc1ccccc1)NC(=O)[C@H](CC(N)=O)NC(=O)c1ccc2ccccc2n1	JR-FL R5		p24		0.006 µM
C=CCc1ccc(O)c(-c2cc(CC=C)ccc2O)c1			RT activity		3.3 µM
Cc1cn([C@@H]2C[C@@H](F)[C@H](CO)O2)c(=O)[nH]c1=O	LAI		RT activity		>100 µM
Cc1ccc(NC(=S)N[C@H](C)c2cccc3ccccc23)nc1	IIIB		p24		0.0023 µM
CCO/N=C(\c1ccc(Br)cc1)C1CCN(C2(C)CCN(C(=O)c3c(C)cc[n+]([O-])c3C)CC2)CC1	BAL R5		p24		0.004 µM
CCCCCCCCc1cc2cn(COCCO)c(=O)nc2o1	LAI		RT activity		49.8 µM
C[C@@H](CNC(=S)Nc1ccc(Br)cn1)C1CCCCC1	IIIB		p24		0.001 µM

Repeating the final 9 entries:

| smiles | strain | mutations | method | setting | result |
|---|---|---|---|---|---|
| S=C(NCc1ccco1)Nc1nccs1 | IIIB |  | p24 |  | <0.001 µM |
| CCOC(=O)Cc1csc(NC(=S)NC(CC)c2ccccc2)n1 | IIIB |  | p24 |  | 0.05 µM |
| CC(C)(C)NC(=O)[C@@H]1C[C@@H]2CCCC[C@@H]2CN1C[C@@H](O)[C@H](Cc1ccccc1)NC(=O)[C@H](CC(N)=O)NC(=O)c1ccc2ccccc2n1 | JR-FL R5 |  | p24 |  | 0.006 µM |
| C=CCc1ccc(O)c(-c2cc(CC=C)ccc2O)c1 |  |  | RT activity |  | 3.3 µM |
| Cc1cn([C@@H]2C[C@@H](F)[C@H](CO)O2)c(=O)[nH]c1=O | LAI |  | RT activity |  | >100 µM |
| Cc1ccc(NC(=S)N[C@H](C)c2cccc3ccccc23)nc1 | IIIB |  | p24 |  | 0.0023 µM |
| CCO/N=C(\c1ccc(Br)cc1)C1CCN(C2(C)CCN(C(=O)c3c(C)cc[n+]([O-])c3C)CC2)CC1 | BAL R5 |  | p24 |  | 0.004 µM |
| CCCCCCCCc1cc2cn(COCCO)c(=O)nc2o1 | LAI |  | RT activity |  | 49.8 µM |
| C[C@@H](CNC(=S)Nc1ccc(Br)cn1)C1CCCCC1 | IIIB |  | p24 |  | 0.001 µM |